From US20180079802A1 (VANDERBILT UNIVERSITY, published 2018)

What follows are binders tested against T1, Recombinant CHIKV E2 ectodomain protein (corresponding to the CHIKV-LR2006 strain) (Chikungunya virus strain LR2006) (assay: ELISA, E2 ectodomain coated, mAb at 10 µg/mL).
T1 construct: extracellular domain; also called CHIKV-LR2006 E2 ectodomain; purified E2 protein

Binder | OD
5O14 (antibody, V domains shown) VH: QVQLVQSGGRVVQAGRSLRLSCAASGFTFSMYGVHWVRQAPGKGLEWVAVIWNDGSKEYYGDSVKGRFTISRDNSRNTLYLQMNSLRVDDTAVYFCARDGIPDPERGDYGGLDYWGQGTLVTVSS VL: QTVVTQFPSSPFASVGDGVTITCRARQSISSYVNWYQQKPGKAPKLLIYATSSLQSGVPSRFSGSGYGTDFTLTISGLQPEDFATYYCQQSYSFPRTFGQGTKVEIK | > 1 od
2B4 (antibody, V domains shown) VH: QVQLVQSGSELKKPGASVKVSCKASGYSFTSYSINWVRQAPGQGPEWMGWIDTNTGNPTYAQDFAGRFVFSLDTSVTTAYLQISSLKAGDTAVYYCATYYVDLWGSYRQDYYGMDVWGH VL: QSVLTQPPSASGTPGQRVTISCSGGSSNIGSNPVNWYQMVPGTAPKLLLYTNNQRPSGVPDRFSGSKSGTSASLAINGLQSEDEADYYCAVWDDSLSGRWVFGGGTKVTVL | 0.5 to 0.99 od
4J21 (antibody, V domains shown) VH: QVQLVQSGSELKKPGASVKVSCKASGYSFTSYSINWVRQAPGQGPEWMGWIDTNTGNPTYAQDFAGRFVFSLDTSVTTAYLQISSLKAGDTAVYYCATYYVDLWGSYRQDYYGMDVWGHGTLVTVSS VL: QSVVTQPPSVSGTPGQGVTISCSGGSSNIGSNPVNWYQMVPGTAPKLLLYTNNQRPSGVPDRFSGSKSGTSASLAINGLQSEDEADYYCAVWDDSLSGRWVFGGGTKLTVL | 0.5 to 0.99 od
